Measured values from several laboratories, pooled; numbers as filed in NIAID ChemDB.

All rows: growth or infection tests; organism: Vaccinia virus; cell line: PRK; read-out: EC50

Two numbers with a dash give a range or band.

compound | value
O=c1[nH]c(=O)n([C@H]2C[C@H](O)[C@@H](CO)O2)cc1/C=C/Br | 15 µg/mL
N=C(N)CCNC(=O)c1c[nH]c(NC(=O)c2c[nH]c(NC(=O)CCCCCCCC(=O)Nc3c[nH]c(C(=O)Nc4c[nH]c(C(=O)NCCC(=N)N)c4)c3)c2)c1 | 0.2 µg/mL
COC[C@H]1O[C@@H](n2ccc(N)nc2=O)[C@@H](O)[C@@H]1O | 10 µg/mL
O=c1[nH]c(=O)n([C@H]2C[C@H](O)[C@@H](CO)O2)cc1CCCl | 112 µg/mL
COc1ccc2[nH]c3c(c2c1)CCN1OCSCC(N)[C@@H]31 | 0.02 µg/mL
CCc1cn([C@H]2C[C@H](O)[C@@H](CO)O2)c(=O)[nH]c1=O | 20 µg/mL
[N-]=[N+]=N[C@H]1[C@H](O)[C@@H](CO)O[C@H]1n1cnc2c(N)ncnc21 | 40–100 µg/mL
O=P(O)(O)OC[C@H]1OC(O)[C@@H](O)[C@@H](O)[C@@H]1O | >400 µg/mL
Nc1nc2c(nc(Cl)n2COCCO)c(=O)[nH]1 | >400 µg/mL
O=Cc1cn([C@H]2C[C@H](O)[C@@H](CO)O2)c(=O)[nH]c1=O | 0.2 µg/mL
Nc1ncnc2c1ncn2C[C@H](O)CO | 50 µg/mL
Nc1ncnc2c1ncn2[C@@H]1O[C@H](CO)[C@@H](O)[C@H]1N | 4 µg/mL
Nc1ncnc2c1ncn2[C@@H]1O[C@H](COP(=O)(O)O)[C@@H](O)[C@H]1O | 300 µg/mL
Nc1ccn([C@@H]2O[C@H](CO)[C@@H](O)[C@H]2N)c(=O)n1 | ≥200 µg/mL
Nc1ncnc2c1ncn2[C@@H]1O[C@H](COP(=O)(O)O[C@@H]2[C@H](O)[C@@H](COP(=O)(O)OP(=O)(O)OC[C@@H]3OC(O)[C@H](O)[C@H](O)[C@H]3O)O[C@H]2n2cnc3c(N)ncnc32)[C@@H](O)[C@H]1O | >200 µg/mL
O=c1[nH]c(=O)n(C2CC(CO)[C@H](O)C2)cc1I | 150 µg/mL
Nc1ncnc2c1ncn2C[C@H](O)CO | 10–40 µg/mL
CO[C@H]1[C@H](O)[C@@H](CO)O[C@H]1n1ccc(N)nc1=O | 200 µg/mL
N#CSc1cn([C@@H]2O[C@H](CO)[C@@H](O)[C@H]2O)c(=O)[nH]c1=O | 40 µg/mL
O=c1[nH]c(=O)n([C@H]2CC[C@@H](CO)O2)cc1/C=C/Br | 7 µg/mL
Nc1ccn([C@@H]2O[C@H](CO)[C@@H](O)[C@@H]2O)c(=O)n1 | 0.04 µg/mL
N#CSc1cn([C@H]2C[C@H](O)[C@@H](CO)O2)c(=O)[nH]c1=O | 4 µg/mL
Nc1nc2c(nc(N3CCCCC3)n2COCCO)c(=O)[nH]1 | >400 µg/mL
Cc1cn([C@H]2C[C@H](N=[N+]=[N-])[C@@H](CO)O2)c(=O)[nH]c1=O | 40–100 µg/mL
N=C(N)CCNC(=O)c1c[nH]c(NC(=O)c2c[nH]c(NC(=O)/C=C/C(=O)Nc3c[nH]c(C(=O)Nc4c[nH]c(C(=O)NCCC(=N)N)c4)c3)c2)c1 | 2 µg/mL
O=c1[nH]c(=O)n([C@H]2C[C@H](O)[C@@H](CO)O2)cc1CN1CCCC1 | ≥200 µg/mL
CC1=C[C@@H](n2cnc3c(N)ncnc32)[C@H](O)[C@@H]1O | 0.7 µg/mL
N=C(N)CCNC(=O)c1c[nH]c(NC(=O)c2c[nH]c(NC(=O)CCCCCCC(=O)Nc3c[nH]c(C(=O)Nc4c[nH]c(C(=O)NCCC(=N)N)c4)c3)c2)c1 | 0.2 µg/mL
O=c1[nH]c(=O)n(COCCO)cc1F | >400 µg/mL
O=c1[nH]c(=O)n([C@@H]2C[C@H](CO)[C@@H](O)C2)cc1I | 40 µg/mL
CS(=O)(=O)Cc1cn([C@H]2C[C@H](O)[C@@H](CO)O2)c(=O)[nH]c1=O | 200 µg/mL
Nc1nc2c(ncn2[C@@H]2O[C@H](CO)[C@@H](O)[C@H]2N)c(=O)[nH]1 | >200 µg/mL
O=c1cc(O)ccn1COCCO | >400 µg/mL
Nc1ncnc2c1ncn2[C@@H]1C=C(CCl)[C@@H](O)[C@H]1O | 0.7 µg/mL
[N-]=[N+]=N[C@H]1[C@@H](O)[C@H](n2cnc3c(N)ncnc32)O[C@@H]1CO | 4 µg/mL
Nc1ncnc2c1ncn2C[C@@H](CO)OCP(=O)(O)O | 0.3 µg/mL
O=c1[nH]c(=O)n([C@H]2C[C@H](O)[C@@H](CO)O2)cc1I | 0.2 µg/mL
O=C(O)Cc1cn([C@H]2C[C@H](O)[C@@H](CO)O2)c(=O)[nH]c1=O | 600 µM
Nc1ccn([C@@H]2C=C(CO)[C@@H](O)[C@H]2O)c(=O)n1 | 0.02 µg/mL
Nc1nc(=O)n(COCCO)cc1[N+](=O)[O-] | >400 µg/mL
NC1CSCON2CCc3c([nH]c4ccccc34)[C@H]12 | 0.1 µg/mL

A second listing of 6 rows from above:

| compound | value |
|---|---|
| Nc1ncnc2c1ncn2[C@@H]1C=C(CCl)[C@@H](O)[C@H]1O | 0.7 µg/mL |
| Nc1nc2c(ncn2[C@@H]2O[C@H](CO)[C@@H](O)[C@H]2N)c(=O)[nH]1 | >200 µg/mL |
| O=c1[nH]c(=O)n([C@H]2C[C@H](O)[C@@H](CO)O2)cc1I | 0.2 µg/mL |
| Nc1nc2c(nc(Cl)n2COCCO)c(=O)[nH]1 | >400 µg/mL |
| O=c1[nH]c(=O)n(C2CC(CO)[C@H](O)C2)cc1I | 150 µg/mL |
| Cc1cn([C@H]2C[C@H](N=[N+]=[N-])[C@@H](CO)O2)c(=O)[nH]c1=O | 40–100 µg/mL |

Rows are shuffled and stem from different studies. ECn: concentration that inhibits the pathogen or its effect by n%.